Tests used:
[1] = test system: P. falciparum female gametocytes; assay: P. falciparum female gametogenesis assay (Pf FGAA)
[2] = test system: P. falciparum late stage (stages IV-V) gametocytes; assay: P. falciparum late stage gametocyte ATP depletion assay (Pf GC-ATP)
[3] = unified cytotox over Pf FGAA IC50, red: <10-fold selectivity, green: >10-fold
[4] = unified cytotox over Pf GC-ATP IC50, red: <10-fold selectivity, green: >10-fold
[5] = unified cytotox / IC50, <10-fold red, >10-fold green

| Structure (SMILES) | Assay tox ratio Pf FGAA [1, 3] | Assay tox ratio Pf GC-ATP [2, 4] | Assay tox ratio Pf FGAA [1, 5] | Assay tox ratio Pf GC-ATP [2, 5] |
| --- | --- | --- | --- | --- |
| COc1ccc2c(c1CCNCCCCNCCc1c(OC)ccc3c1CCCC3)CCCC2.CS(=O)(=O)O [TCMDC-137324] | 1.90 | 8.10 | – | – |
| C=CCOc1ccc2ccccc2c1CNCCCCCCNCc1c(OCC=C)ccc2ccccc12.CS(=O)(=O)O [TCMDC-137340] | 2.75 | 7.71 | – | – |
| Cl.c1ccc2c(Nc3ccc(Cc4ccc(Nc5c6ccccc6nc6ccccc56)cc4)cc3)c3ccccc3nc2c1 [TCMDC-137354] | 4.00 | 1.81 | – | – |
| Br.C/C=C/C=C/C1=NCCc2cc(OCCC)ccc21 [TCMDC-137442] | 14.37 | 24.97 | – | – |
| Cl.N=C(NCCCCC1CCCCC1)c1cccc(C(=N)NCCCCC2CCCCC2)n1 [TCMDC-137452] | 1.62 | 7.77 | – | – |
| CC(CNC(=N)c1cccc(C(=N)NCC(C)Oc2cccc(C3CCCCC3)c2)n1)Oc1cccc(C2CCCCC2)c1.Cl (stereo not drawn) [TCMDC-137455] | 2.24 | 11.86 | – | – |
| N=C(NCC1CC1c1ccccc1)c1cccc(C(=N)NCC2CC2c2ccccc2)n1 (stereo not drawn) [TCMDC-137456] | 3.44 | 14.45 | – | – |
| COc1ccc(CNCCCCCCNCc2ccc(OC)c3ccccc23)c2ccccc12.Cl [TCMDC-137631] | 3.37 | 4.83 | – | – |
| CN1CCN(CCNc2c3ccccc3nc3c2ccc2ccccc23)CC1.Cl [TCMDC-137723] | 1.67 | 15.09 | – | – |
| COc1ccc2nc(-c3ccccc3)cc(NCCCNc3cc(-c4ccccc4)nc4ccc(OC)cc34)c2c1.Cl [TCMDC-137734] | 6.81 | 31.44 | – | – |
| Cl.c1ccc2c(NCCCCCCCCCNc3ccnc4ccccc34)ccnc2c1 [TCMDC-137750] | 2.60 | 2.14 | – | – |
| Cl.c1ccc2c(NCCCCCCCCNc3ccnc4ccccc34)ccnc2c1 [TCMDC-137751] | 2.40 | 2.26 | – | – |
| CS(=O)(=O)O.CSc1ccc2ccccc2c1CCNCCCCNCCc1c(SC)ccc2ccccc12 [TCMDC-137763] | 1.71 | 7.54 | – | – |
| CC1CCCCN1CCCNc1nc(NCc2ccccc2)c2ccccc2n1 (stereo not drawn) [TCMDC-137771] | 2.39 | 123.90 | – | – |
| COc1cc2ccccc2c(CNCCCCCCNCc2c(OC)c(OC)cc3ccccc23)c1OC.CS(=O)(=O)O [TCMDC-137795] | 7.01 | 4.46 | – | – |
| COc1ccc2ccc(OC)c(CNCCCCCCNCc3c(OC)ccc4ccc(OC)cc34)c2c1.CS(=O)(=O)O [TCMDC-137796] | 2.77 | 11.78 | – | – |
| COc1ccc2cc(CNCCCCCCNCc3ccc4cc(OC)ccc4c3)ccc2c1.CS(=O)(=O)O [TCMDC-137797] | 3.88 | 3.39 | – | – |
| c1cc(C2=N[C@H]3CCCC[C@@H]3N2)ccc1OCCCOc1ccc(C2=N[C@@H]3CCCC[C@H]3N2)cc1 [TCMDC-137803] | 3.31 | 81.47 | – | – |
| Nc1nc(N)c2c(ccc3c2ccn3Cc2ccc(-c3ccccc3)cc2)n1 [TCMDC-137813] | 0.68 | 0.95 | – | – |
| CS(=O)(=O)O.FC(F)(F)COc1ccc2ccccc2c1CNCCCCCCNCc1c(OCC(F)(F)F)ccc2ccccc12 [TCMDC-137816] | 2.25 | 6.60 | – | – |
| COc1c(OC)c(OC)c2ccccc2c1CNCCCCCCNCc1c(OC)c(OC)c(OC)c2ccccc12.Cl [TCMDC-137827] | 1.84 | 2.69 | – | – |
| C#CCCOc1ccc2ccccc2c1CNCCCCCCNCc1c(OCCC#C)ccc2ccccc12 [TCMDC-137832] | 5.57 | 12.70 | – | – |
| C#CCOc1ccc2ccccc2c1CNCCCCCCNCc1c(OCC#C)ccc2ccccc12.CS(=O)(=O)O [TCMDC-137838] | 2.91 | 6.11 | – | – |
| COc1cc2ccccc2c(OC)c1CCNCCCCNCCc1c(OC)cc2ccccc2c1OC.CS(=O)(=O)O [TCMDC-137842] | – | – | 2.97 | 12.08 |
| CCCCOc1cc(OC)c2ccccc2c1CCNCCCCNCCc1c(OCCCC)cc(OC)c2ccccc12.CS(=O)(=O)O [TCMDC-137845] | – | – | 3.27 | 4.97 |
| CCCCOc1c(CCNCCCCNCCc2cc(OC)c3ccccc3c2OCCCC)cc(OC)c2ccccc12.CS(=O)(=O)O [TCMDC-137848] | – | – | 4.14 | 31.70 |
| CS(=O)(=O)O.FC(F)(F)COc1ccc(CNCCCCCCNCc2ccc(OCC(F)(F)F)c3ccccc23)c2ccccc12 [TCMDC-137853] | 4.37 | 49.64 | – | – |

| Structure (SMILES) | Assay tox ratio Pf FGAA [1, 3] | Assay tox ratio Pf GC-ATP [2, 4] | Assay tox ratio Pf FGAA [1, 5] | Assay tox ratio Pf GC-ATP [2, 5] |
| --- | --- | --- | --- | --- |
| COc1c(CCNCCCCNCCc2cc(Cl)c3ccccc3c2OC)cc(Cl)c2ccccc12.CS(=O)(=O)O [TCMDC-137869] | – | – | 7.70 | 30.83 |
| CN(CCCNCc1ccc2ccccc2c1)CCCNCc1ccc2ccccc2c1.Cl [TCMDC-137908] | – | – | 55.19 | 96.93 |
| COc1ccc2ccccc2c1CNCCCCCCNCc1c(OC)ccc2ccccc12.Cl [TCMDC-137915] | – | – | 5.54 | 15.41 |
| COc1ccc2c(c1)CC(C)(C)NC2CCCCCCCCC1NC(C)(C)Cc2cc(OC)ccc21.O=C(O)C(=O)O (stereo not drawn) [TCMDC-137935] | 3.72 | 6.93 | – | – |
| CCOc1cc(CNCCCCCCNCc2cc(OCC)c(OCC)c3ccccc23)c2ccccc2c1OCC.CS(=O)(=O)O [TCMDC-137939] | – | – | 1.32 | 3.15 |
| COc1cc2ccccc2cc1CCNCCCCNCCc1cc2ccccc2cc1OC.CS(=O)(=O)O [TCMDC-137944] | 4.09 | 24.05 | – | – |
| CCCOc1ccc(CCNCCCCNCCc2ccc(OCCC)c3ccccc23)c2ccccc12.CS(=O)(=O)O [TCMDC-137952] | 3.89 | 28.58 | – | – |
| COc1ccc2c(OC)c(CNCCCCCCNCc3ccc4cc(OC)ccc4c3OC)ccc2c1.CS(=O)(=O)O [TCMDC-137953] | 2.66 | 1.73 | – | – |
| CCCCCCOc1ccc2ccccc2c1CNCCCCCCNCc1c(OCCCCCC)ccc2ccccc12.CS(=O)(=O)O [TCMDC-137963] | 1.90 | 5.94 | – | – |
| CC(C)Oc1ccc2ccccc2c1CNCCCCCCNCc1c(OC(C)C)ccc2ccccc12.CS(=O)(=O)O [TCMDC-137965] | 2.26 | 15.31 | – | – |
| CCCOc1ccc2ccccc2c1CNCCCCCCNCc1c(OCCC)ccc2ccccc12.CS(=O)(=O)O [TCMDC-137966] | 2.46 | 7.49 | – | – |
| CC(C)COc1ccc2ccccc2c1CNCCCCCCNCc1c(OCC(C)C)ccc2ccccc12.CS(=O)(=O)O [TCMDC-137972] | 2.50 | 19.69 | – | – |
| CC(C)(C)c1ccc(-c2cc3c(ccc4nc(N)nc(N)c43)[nH]2)cc1 [TCMDC-137977] | 3.33 | 4.66 | – | – |
| CC(C)(C)c1ccc(-c2nc3c(ccc4nc(N)nc(N)c43)[nH]2)cc1.Cl [TCMDC-137984] | 11.58 | 14.55 | – | – |
| CCCCCCCCN1CCN(CCCCCCNc2c3ccccc3nc3ccccc23)CC1.Cl [TCMDC-138015] | 5.06 | 12.90 | – | – |
| CC(=O)c1ccc2nc[nH]c(=O)c2c1 [TCMDC-138172] | 3.82 | 9.35 | – | – |
| COc1cc2nc(NCc3cccc(CNC(=O)c4ccc(-c5ccc(C(C)=O)cc5)cc4)c3)nc(N)c2cc1OC.O=C(O)C(F)(F)F [TCMDC-138177] | 1.72 | 4.09 | – | – |
| COc1cc2nc(N3CCN(C(=O)c4c(Cl)nsc4-c4ccccc4Cl)CC3)nc(N)c2cc1OC.O=C(O)C(F)(F)F [TCMDC-138186] | 7.09 | 32.73 | – | – |
| Cc1ccc(C(=O)Nc2ccc(Nc3ccnc4cc(-c5ccccn5)ccc34)cc2O)cc1.Cl [TCMDC-138205] | 4.04 | 4.57 | – | – |
| CN(C)CCNCc1ccc(-c2ccc3c(Nc4ccc(Oc5ccccc5)cc4)ccnc3c2)o1 [TCMDC-138399] | 4.26 | 20.40 | – | – |
| CN(C)CCN(C)Cc1cccc(-c2ccc3c(Nc4ccc(F)cc4Cl)ccnc3c2)c1 [TCMDC-138416] | 0.69 | 10.10 | – | – |
| CN(C)CCNCc1cccc(-c2ccc3c(Nc4ccc(Oc5ccccn5)cc4)ccnc3c2)c1 [TCMDC-138493] | 5.19 | 19.25 | – | – |
| COc1cc2nc(N3CCC(CCCC4CCNCC4)CC3)nc(NCc3ccccn3)c2cc1OC.O=C(O)C(F)(F)F [TCMDC-138494] | 2.12 | 36.37 | – | – |
| CN1CCN(CCCNCc2cccc(Nc3nccc(Nc4ccc(Oc5ccccc5)cc4)n3)c2)CC1 [TCMDC-138616] | 5.02 | 15.39 | – | – |
| C=CCC1OC(=O)c2cc(OC)cc(OC)c21 (stereo not drawn) [TCMDC-138677] | 6.74 | 4.05 | – | – |
| COc1cc2nc(N3CCC(CNC(=O)c4ccc(-c5ccc(-c6noc(C)n6)cc5)cc4)CC3)nc(N)c2cc1OC [TCMDC-138754] | 4.40 | 41.95 | – | – |
| COc1cc2nc(N3CCC(CNCc4ccc(-c5ccc(C(F)(F)F)cc5)cc4)CC3)nc(N)c2cc1OC [TCMDC-138757] | 14.62 | 80.89 | – | – |

Source: publication PMC6753678, “Fueling Open Innovation for Malaria Transmission-Blocking Drugs: Hundreds of Molecules Targeting Early Parasite Mosquito Stages” (Frontiers in Microbiology, 2019)
